# Laboratory results published in paper PMC9408872, “Harmicens, Novel Harmine and Ferrocene Hybrids: Design, Synthesis and Biological Activity” (International Journal of Molecular Sciences, 2022).
# Test system: MCF-7 cells
# Type: cell-based, human
# Conditions: 28 at 10 µM, 36 at 5 µM, 30 min, intrinsic fluorescence, DAPI filter
smiles,measurement,value
"Cc1nccc2c1[nH]c1cc(OCCNC(=O)C[c-]3cccc3)ccc12.[Fe+2].c1cc[cH-]c1 [Compound 36, N-(2-((1-Methyl-9H-pyrido[3,4-b]indol-7-yl)oxy)ethyl)-2-ferrocenylacetamide]",intracellular localization,the fluorescence of the nuclei was not as apparent
